## Potato spindle tuber viroid, loop 15: variant abundance in plants

Values reported by Wu et al. 2024 (doi:10.1371/journal.ppat.1012142).

Region: loop 15 of PSTVd (intermediate strain), upper and lower strand joined, each 5' to 3', the first 7 letters being the upper strand, closing pairs included. Wild type: GGAAACCGCUACUAC. Varied positions (N): GGAAACCGNNNNNNC.

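Three N. benthamiana plants were inoculated with the whole mutant pool. Progeny were sequenced from the inoculated region (day 5), the margin of the inoculated leaf (day 10) and systemic leaves (day 12).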

Numbers give reads per thousand; 0 = not seen among the reads, higher = more abundant. Each value is the mean of three plants. "Pool" is the share in the plasmid pool used as inoculum, on the same scale. The inoculated region was read from the minus strand, the other sites from the plus strand. IR is the inoculated region, LM the leaf margin, Sys the systemic leaves.

* GGAAACCGAAAGAGC (pool 0.192) = IR 0.0760; LM 0.00668; Sys 0
* GGAAACCGAACACUC (pool 0.160) = IR 0.0740; LM 0.0121; Sys 0
* GGAAACCGAAGAGUC (pool 0.336) = IR 0.242; LM 0.0195; Sys 0
* GGAAACCGAAUGGGC (pool 0.208) = IR 0.116; LM 0.0343; Sys 0
* GGAAACCGAAUUACC (pool 0.240) = IR 0.0960; LM 0.0195; Sys 0
* GGAAACCGACCCGAC (pool 0.240) = IR 0.142; LM 0.0121; Sys 0.00537
* GGAAACCGAGAGUCC (pool 0.208) = IR 0.317; LM 0.0954; Sys 0.0771
* GGAAACCGAGCCGAC (pool 0.288) = IR 0.0972; LM 0.00539; Sys 0
* GGAAACCGAUCAGUC (pool 0.256) = IR 0.113; LM 0.0200; Sys 0
* GGAAACCGCAGGGAC (pool 0.320) = IR 0.0633; LM 0.0134; Sys 0
* GGAAACCGCCGGACC (pool 0.208) = IR 0.0796; LM 0; Sys 0
* GGAAACCGCCUGAUC (pool 0.224) = IR 0.287; LM 0.0228; Sys 0.00537
* GGAAACCGCCUGGUC (pool 0.128) = IR 0.107; LM 0; Sys 0
* GGAAACCGCCUUUAC (pool 0.192) = IR 0.353; LM 0.119; Sys 0.0610
* GGAAACCGCGCUCCC (pool 0.128) = IR 0.101; LM 0; Sys 0
* GGAAACCGCGGGAAC (pool 0.288) = IR 0.120; LM 0; Sys 0
* GGAAACCGCGGGGGC (pool 0.176) = IR 0.0976; LM 0; Sys 0
* GGAAACCGGACGACC (pool 0.224) = IR 0.113; LM 0.0182; Sys 0
* GGAAACCGGAGUUCC (pool 0.256) = IR 0.107; LM 0; Sys 0
* GGAAACCGGGAACAC (pool 0.160) = IR 0.0669; LM 0.0134; Sys 0
* GGAAACCGGGAUACC (pool 0.208) = IR 0.169; LM 0.00668; Sys 0.0107
* GGAAACCGGGCCGUC (pool 0.240) = IR 0.125; LM 0.0328; Sys 0
* GGAAACCGGGUUUAC (pool 0.256) = IR 0.123; LM 0; Sys 0.00537
* GGAAACCGGUCUGCC (pool 0.336) = IR 0.101; LM 0.0121; Sys 0.0107
* GGAAACCGUACGUAC (pool 0.240) = IR 0.375; LM 0.120; Sys 0.0484
* GGAAACCGUACUUGC (pool 0.288) = IR 0.0750; LM 0.00539; Sys 0
* GGAAACCGUAGAGUC (pool 0.224) = IR 0.102; LM 0.0208; Sys 0.00537
* GGAAACCGUCCCGCC (pool 0.176) = IR 0.0869; LM 0; Sys 0
* GGAAACCGUCGCCCC (pool 0.320) = IR 0.0866; LM 0.0262; Sys 0
* GGAAACCGUGAUCUC (pool 0.224) = IR 0.315; LM 0.0912; Sys 0.00537
* GGAAACCGUGUAUCC (pool 0.288) = IR 0.154; LM 0.0256; Sys 0
* GGAAACCGUUUUCAC (pool 0.160) = IR 0.0893; LM 0.00539; Sys 0

Samples held 43,870 to 66,106 reads, so the smallest values rest on one or two reads. The authors trace changes outside the varied positions to PCR and sequencing errors or to mutation in the plant; presence does not show that a variant is infectious alone. For reference, wild type rose from 33.9 per thousand in the pool to 202, 200, 159 (inoculated region), 724, 746, 710 (leaf margin) and 856, 883, 880 (systemic leaves).